Results deposited as PubChem BioAssay AID624099 (ICCB-Longwood, 2012).
Here is a random part of about 21,000 deposited reagents. 497 of them (2.4%) count as active. 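Higher z means weaker E2 silencing; only reporter increases were scored, and knock-downs that hurt cell survival may mask genuine repressor factors.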 Unmarked entries are inactive. Reagents against one gene are numbered here.

Assay: 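Host factors E2 relies on to silence an HPV18 LCR reporter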 (primary screen)
Cells: human C33A cervical carcinoma cells (HPV-negative) stably expressing BPV1 E2 and an HPV18 LCR luciferase reporter
Knock-down reagent: siRNA pool against human genes, 40 nM
Time to read-out: 72 h
Read-out: 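Per-well luciferase luminescence, z-scored on each plate against the plate mean and SD with control wells left out, then averaged across three replicate plates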
Reading the numbers: mean z-score and z-score: higher = stronger reporter signal, weaker E2 silencing
Rule for the call: 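Hit if mean z-score reaches 2 and two or more of three replicate z-scores also reach 2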

gene knocked down | reagent no. | mean z-score | z-score, replicate A | z-score, replicate B | z-score, replicate C
SEC14L2 (SEC14 like lipid binding 2) | 1 | -0.88 | -1.06 | -0.87 | -0.73
APOF (apolipoprotein F) | 1 | -1.97 | -1.83 | -2.15 | -1.93
NOP58 (NOP58 ribonucleoprotein) | 1 | -0.7 | -0.76 | -0.7 | -0.65
ZNF471 (zinc finger protein 471) | 1 | 0.06 | 0.41 | -0.59 | 0.35
ZSCAN10 (zinc finger and SCAN domain containing 10) | 1 | -0.34 | -0.4 | -0.08 | -0.54
LRTM1 (leucine rich repeat transmembrane protein 1) | 1 | 1.2 | 1.89 | 1.18 | 0.52
NUP210L (nucleoporin 210 like) | 1 | 0.61 | 0.06 | 0.7 | 1.07
LOC139263 (retired record) | 1 | -0.3 | -0.16 | -0.32 | -0.43
DEFB132 (defensin beta 132) | 1 | -0.39 | -0.04 | -0.47 | -0.65
DCAF4 (DDB1 and CUL4 associated factor 4) | 1 | 0.36 | 0.45 | 0.44 | 0.18
ZBTB7A (zinc finger and BTB domain containing 7A) | 1 | -0.2 | -0.26 | -0.08 | -0.26
WDR59 (WD repeat domain 59) | 1 | -0.04 | -0.48 | -0.2 | 0.56
H2AC11 (H2A clustered histone 11) | 1 | 0.76 | 1.02 | 0.62 | 0.64
RPL9 (ribosomal protein L9) | 1 | 0.9 | 0.91 | 0.79 | 0.99
CHD8 (chromodomain helicase DNA binding protein 8) | 1 | 2.05 | 1.98 | 2.47 | 1.71
C12orf42 (chromosome 12 open reading frame 42) | 1 | 1.57 | 1.57 | 1.55 | 1.58
LOC402207 (retired record) | 1 | 0.2 | -0.13 | 0.48 | 0.23
LOC402207 (retired record) | 2 | 0.45 | 0.73 | 0.4 | 0.23
HAGHL (hydroxyacylglutathione hydrolase like) | 1 | -0.6 | -0.63 | -0.68 | -0.5
MTDH (metadherin) | 1 | 0.42 | 0.68 | 0.34 | 0.24
SDC1 (syndecan 1) | 1 | 0.06 | -0.53 | 0.2 | 0.51
HSPC047 (retired record) | 1 | -1.02 | -1.09 | -0.86 | -1.11
FAM193B (family with sequence similarity 193 member B) | 1 | -1.68 | -1.66 | -1.58 | -1.82
TSNAX (translin associated factor X) | 1 | 0.04 | -0.01 | 0.04 | 0.09
KRTAP4-7 (keratin associated protein 4-7) | 1 | 0.23 | 0.35 | 0.11 | 0.24
CRLF2 (cytokine receptor like factor 2) | 1 | 1.04 | 1.17 | 1.02 | 0.95
PPP1R1A (protein phosphatase 1 regulatory inhibitor subunit 1A) | 1 | -1.49 | -1.07 | -1.61 | -1.78
IQCM (IQ motif containing M) | 1 | -0.16 | 0 | -0.31 | -0.17
FEM1B (fem-1 homolog B) | 1 | -0.14 | -0.36 | -0.06 | -0.01
CERS1 (ceramide synthase 1) | 1 | -0.09 | -0.13 | -0.49 | 0.35
C16orf46 (chromosome 16 open reading frame 46) | 1 | 0.9 | 1.19 | 0.34 | 1.17
GP5 (glycoprotein V platelet) | 1 | -0.59 | -0.32 | -0.74 | -0.7
SPAG8 (sperm associated antigen 8) | 1 | -0.28 | -0.17 | -0.4 | -0.28
DENND6B (DENN domain containing 6B) | 1 | 0.84 | 0.95 | 0.91 | 0.67
MAGI2 | 1 | 0.15 | -0.29 | 0.46 | 0.29
LOC402367 (retired record) | 1 | 0.36 | 0.67 | -0.17 | 0.57
SPATS2 (spermatogenesis associated serine rich 2) | 1 | -0.68 | -0.66 | -0.63 | -0.75
PDK4 (pyruvate dehydrogenase kinase 4) | 1 | 0.02 | -0.39 | -0.09 | 0.53
PDK4 (pyruvate dehydrogenase kinase 4) | 2 | 0.93 | 0.33 | 1.87 | 0.58
CHRM3 (cholinergic receptor muscarinic 3) | 1 | 1.23 | 1 | 1.4 | 1.3
FRS2 (fibroblast growth factor receptor substrate 2) | 1 | -1.37 | -1.34 | -1.42 | -1.35
PARD6A (par-6 family cell polarity regulator alpha) | 1 | 0.39 | 0.75 | 0.46 | -0.03
NKPD1 (NTPase KAP family P-loop domain containing 1) | 1 | 0.2 | 0.41 | -0.19 | 0.37
TCTA (T cell leukemia translocation altered) | 1 | 0.02 | 0.18 | 0.18 | -0.29
LOC389107 (retired record) | 1 | -1.17 | -1.46 | -1.08 | -0.96
P2RX5 (purinergic receptor P2X 5) | 1 | -0.69 | -0.59 | -0.84 | -0.64
PCBP2 (poly(rC) binding protein 2) | 1 | -1.59 | -1.55 | -1.57 | -1.64
CDK17 (cyclin dependent kinase 17) | 1 | 1.48 | 1.37 | 1.42 | 1.66
LOC400050 (retired record) | 1 | 0.27 | 0.26 | -0.12 | 0.67
CDH22 (cadherin 22) | 1 | -1.37 | -1.44 | -1.42 | -1.26
FKBPL (FKBP prolyl isomerase like) | 1 | -0.51 | 0.37 | -0.72 | -1.18
LOC400400 (retired record) | 1 | -1.1 | -0.94 | -1.4 | -0.95
SIPA1L3 (signal induced proliferation associated 1 like 3) | 1 | 0.76 | 0.81 | 0.68 | 0.78
PHF20 (PHD finger protein 20) | 1 | 1.1 | 0.71 | 0.86 | 1.74
USP27X (ubiquitin specific peptidase 27 X-linked) | 1 | -0.12 | 0.05 | -0.2 | -0.22
DCN (decorin) | 1 | 0.18 | 0.36 | 0.1 | 0.08
AP3D1 (adaptor related protein complex 3 subunit delta 1) | 1 | -0.47 | -0.38 | -0.5 | -0.53

6 consecutive reagents already listed, quoted:
gene knocked down | reagent no. | mean z-score | z-score, replicate A | z-score, replicate B | z-score, replicate C
LOC389107 (retired record) | 1 | -1.17 | -1.46 | -1.08 | -0.96
P2RX5 (purinergic receptor P2X 5) | 1 | -0.69 | -0.59 | -0.84 | -0.64
PCBP2 (poly(rC) binding protein 2) | 1 | -1.59 | -1.55 | -1.57 | -1.64
CDK17 (cyclin dependent kinase 17) | 1 | 1.48 | 1.37 | 1.42 | 1.66
LOC400050 (retired record) | 1 | 0.27 | 0.26 | -0.12 | 0.67
CDH22 (cadherin 22) | 1 | -1.37 | -1.44 | -1.42 | -1.26
